Compound potency records, mixed from different reports. Data source: NIAID ChemDB in PubChem.

Shared fields: whole-cell or culture tests; agent: HIV-1; method: syncytia; read-out: EC50

An empty or dashed field is not shown. Neighbouring rows are from separate reports. ECn is the concentration giving n% inhibition of infection, replication or growth.

structure | conditions | strain | mutations | cell line | result
CCOCn1c(Cc2cc(C)cc(C)c2)c(CC)c(=O)[nH]c1=O |  | IIIB | RT-Y181C | CEM | 0.04 µM
Cc1ccccc1C(=S)Nc1ccc(Cl)c(C(=O)OC(C)C)c1 |  |  | RT-L100I | CEM | 9.6 µM
C=C(C)[C@@H]1CC[C@]2(C(=O)NCCCCCCCC(=O)N[C@@H](CC(C)C)[C@@H](O)CC(=O)O)CC[C@]3(C)[C@H](CC[C@@H]4[C@@]5(C)CC[C@H](O)C(C)(C)[C@@H]5CC[C@]43C)[C@@H]12 |  | LAI | GP41-K106R | HeLa P4 + HeLa | <10 µM
CCc1c(Sc2cc(C)cc(C)c2)n(COCCO)c(=O)[nH]c1=O |  | IIIB | RT-E138K | CEM | 0.03 µM
CCCCCOC(=S)Nc1ccc(Cl)c(C(=O)OC(C)C)c1 |  |  | RT-E138K | CEM | 17.45 µM
Cc1cn([C@H]2C=C[C@@H](COP(=O)(Nc3cc(C(=O)Nc4cc(C(=O)Nc5cc(C(=O)Nc6cc(C(=O)NCCC(=N)N)n(C)c6)n(C)c5)n(C)c4)n(C)c3)OC(C)C)O2)c(=O)[nH]c1=O |  |  |  | CEM | 5.33 µM
CCCOC(=S)Nc1ccc(Cl)c(C(=O)OC(C)C)c1 |  |  | RT-Y181C | CEM | 17.41 µM
CCc1c(Sc2cc(C)cc(C)c2)n(COCc2ccccc2)c(=S)[nH]c1=O |  | IIIB (TIBO 82150) (RT-L100I) | RT-L100I | CEM | 0.008 µM
Cc1ccsc1C(=S)Nc1ccc(Cl)c(C(=O)OC(C)C)c1 |  |  | RT-E138K | CEM | 1.6 µM
CCOC(=O)c1cc(NC(=O)C2=C(C)OCCS2)ccc1Cl |  | TIBO-resistant (RT L100I) | RT-L100I | CEM | 7.5 µg/mL
CC(C)OC(=O)c1cc(NC(=S)OC(C)(C)C)ccc1Cl |  | IIIB |  | CEM | 1.819 µM
CC1=C(C(=O)Nc2cc(C(=O)OC(C)C)c(Cl)cc2F)SCCO1 |  | Nevirapine-resistant (RT V106A) | RT-V106A | CEM | >10 µg/mL
CC(C)=CCOc1cc(NC(=S)c2ccoc2C)ccc1Cl |  |  | RT-K103N | CEM | 0.069 µM
CC1=C(C(=O)Nc2cc(Cl)cc(C(=O)OC(C)C)c2)SCCO1 |  | PYR-resistant (RT Y181C) | RT-Y181C | CEM | 5.5 µg/mL
Cc1ccc(C)c(C(Cl)S(=O)(=O)c2cc(C)cc[n+]2[O-])c1 |  | IIIB |  | C8166 | 0.4 µg/mL
CC(=O)OCCOC(=O)c1cc(NC(=S)OC(C)C)ccc1Cl |  |  | RT-V106A | CEM | >27.79 µM
CC(C)c1c(Sc2ccccc2)n(COCc2ccccc2)c(=S)[nH]c1=O |  | IIIB | RT-Y181C | CEM | 0.4 µM
CCC1=C(C(=O)Nc2ccc(Cl)c(C(=O)OCC(C)C)c2)SCCO1 |  | Nevirapine-resistant (RT V106A) | RT-V106A | CEM | 3 µg/mL
Cc1occc1C(=S)Nc1ccc(Cl)c(/C=N/OC(C)(C)C)c1 |  | IIIB | RT-E138K | CEM | 0.214 µM
CC(C)(C)OC(=O)N(CCCCCC(=O)Nc1ccn([C@H]2CS[C@@H](CO)O2)c(=O)n1)Cc1ccccc1 |  | LAV |  | MT-4 | 20 µM
CC(C)=CCOc1cc(NC(=S)c2ccoc2C)ccc1Cl |  | IIIB | RT-Y188H | CEM | 0.045 µM
CC(C)(C)OC(=O)N(CCCCCC(=O)Nc1ccn([C@H]2CS[C@@H](COC(=O)CCCCCN(CCCCCN(Cc3ccccc3)C(=O)OC(C)(C)C)C(=O)OC(C)(C)C)O2)c(=O)n1)CCCCCN(Cc1ccccc1)C(=O)OC(C)(C)C |  | LAV |  | MT-4 | 1 µM
COc1ccccc1C(=S)Nc1ccc(Cl)c(C(=O)OC(C)C)c1 |  |  | RT-Y181C | CEM | 12 µM
Cc1cn([C@H]2C[C@H](N=[N+]=[N-])[C@@H](COP(=O)(Nc3cc(C(=O)Nc4cc(C(=O)Nc5cc(C(=O)NCCC(=N)N)n(C)c5)n(C)c4)n(C)c3)OC(C)C)O2)c(=O)[nH]c1=O |  |  |  | CEM/TK- | 1.32 µM
Cc1occc1C(=S)Nc1ccc(Cl)c(OCC=C(Cl)Cl)c1 |  | Nevirapine-resistant isolate (RT V106A) | RT-V106A | CEM | 0.055 µg/mL
CCC(CC)OC(=O)c1cc(NC(=S)c2ccccc2N)ccc1Cl |  | IIIB |  | CEM | 1.9 µM
Cc1ccc(C)c(CS(=O)(=O)c2cccc[n+]2[O-])c1 |  | IIIB | RT-E103K | CEM | 12 µg/mL
O=C(CCCCCNCc1ccccc1)Nc1ccn([C@H]2CS[C@@H](COC(=O)CCCCCNCc3ccccc3)O2)c(=O)n1 |  | LAV |  | MT-4 | 10 µM
CN1CCN(C(=O)c2ccc3c(=O)c4ccccc4[nH]c3c2)CC1 |  | Nevirapine-resistant (RT V106A) | RT-V106A | CEM | 0.65 µg/mL
Cc1occc1C(=O)Nc1ccc(Cl)c(C(=O)OC(C)C2CC2)c1 |  |  | RT-L100I | CEM | 29 µM
CC1=C(C(=O)Nc2ccc(C)c(C(=O)OC(C)C)c2)SCCO1 |  | PYR-resistant (RT Y181C) | RT-Y181C | CEM | 6 µg/mL
CC(COc1cc(NC(=S)OC(C)C)ccc1Cl)=NO |  | IIIB |  | CEM | 0.097 µM
CC1=C(C(=O)Nc2ccc(Cl)c(C(=O)OC(C)C)c2)SCCO1 |  | IIIB | RT-Y188H | CEM | 2.8 µM
CN1CCN(C(=O)c2ccc3c(=O)c4ccccc4[nH]c3c2)CC1 |  |  | RT-V106A | CEM | 1.751 µM
CCSCC1=C(C(=O)Nc2ccc(Cl)c(C(=O)OC(C)C)c2)SCCO1 |  | IIIB |  | CEM | 3 µg/mL
Cc1cn([C@H]2C=C[C@@H](COP(=O)(Nc3cc(C(=O)Nc4cc(C(=O)Nc5cc(C(=O)NCCC(=N)N)n(C)c5)n(C)c4)n(C)c3)OC(C)C)O2)c(=O)[nH]c1=O |  |  |  | CEM/TK- | 1.07 µM
Cc1ccoc1C(=S)Nc1ccc(Cl)c(C(=O)OC(C)C)c1 |  | IIIB |  | CEM | 0.31 µM
COc1ccc(NC(=S)C2=C(C)OCCS2)cc1OCC=C(Cl)Cl |  | TSAO-m3T-resistant (RT E138K) | RT-E138K | CEM | 3.5 µg/mL
CCOCn1c(Cc2ccccc2)c(CC)c(=O)[nH]c1=O |  | IIIB |  | CEM | 0.016 µM
Cc1occc1C(=S)Nc1ccc(Cl)c(SCC=C(Cl)Cl)c1 |  | HEPT-resistant (RT Y188H) | RT-Y188H | CEM | 2 µg/mL
CCC(O)C(N)C(=O)O |  |  |  | H9 | <750 µM
CC(C)COC(=O)c1cc(NC(=S)OC(C)C)ccc1Cl |  |  | RT-E138K | CEM | 1.667 µM
Cc1sccc1C(=S)Nc1ccc(Cl)c(OCC=C(Cl)Cl)c1 |  | Pyridone-resistant (RT Y181C) | RT-Y181C | CEM | 0.23 µg/mL
CCCCCCCCCC[N+](C)(C)CCCNCc1c(O)cc2c(c1O)-c1cc(ccc1O)[C@H]1NC(=O)[C@@H]3NC(=O)C4NC(=O)[C@@H](Cc5ccc(c(Cl)c5)Oc5cc3cc(c5O)Oc3ccc(cc3Cl)[C@@H](O)[C@H](NC1=O)C(=O)N[C@@H]2C(=O)O)NC(=O)[C@H](N)c1ccc(O)c(c1)Oc1cc(O)cc4c1 |  |  | RT-L100I | CEM | 5.3 µM
Cc1cccc(CS(=O)(=O)c2cccc[n+]2[O-])c1 |  | IIIB |  | C8166 | 7 µg/mL
CC(C)O/N=C/c1cc(NC(=S)OC(C)C)ccc1Cl |  | IIIB |  | CEM | 0.0303 µM
Cc1ccc(C(C)S(=O)(=O)c2c(C)ccc[n+]2[O-])c(C)c1 |  | IIIB | RT-L100I | CEM | 60 µg/mL
CC(C)OC(=O)c1cc(NC(=S)N(C)C(C)C)ccc1Cl |  |  | RT-L100I | CEM | >30.32 µM
Cc1occc1C(=S)Nc1ccc(Cl)c(OCC(C)(C)C)c1 |  |  | RT-V106A | CEM | 6 µM
C=C(C)COc1cc(NC(=S)OC(C)C)ccc1Cl |  |  | RT-L100I | CEM | >3.335 µM
CC(C)(C)OC(=O)N(CCCCCC(=O)OC[C@H]1O[C@@H](n2ccc(N)nc2=O)CS1)Cc1ccccc1 |  | LAV |  | MT-4 | 0.05 µM
Cc1ccsc1C(=O)Nc1ccc(Cl)c(/C=N/OC(C)(C)C)c1 |  |  | RT-V106A | CEM | 4.5 µM
CCc1c(Sc2cc(C)cc(C)c2)n(COCc2ccccc2)c(=O)[nH]c1=O |  | IIIB TIBO R82913-resistant (RT K103N) | RT-K103N | CEM | 0.06 µM
Cn1cccc1C(=S)Nc1ccc(Cl)c(/C=N/OC(C)(C)C)c1 |  |  | RT-Y181C | CEM | 0.126 µM
CCOC(=O)C(C)Oc1cc(NC(=S)OC(C)C)ccc1Cl |  | IIIB |  | CEM | 1.879 µM
CC1=C(C(=O)Nc2ccc(Cl)c(C(=O)OC(C)C)c2)SCCO1 |  | IIIB | RT-V106A | CEM | >61 µM
CC(C)OC(=S)Nc1ccc(Cl)c(C(=O)OC2CC2)c1 |  |  | RT-L100I | CEM | 2.868 µM
O=[N+]([O-])c1ccc[n+]([O-])c1SCc1ccccc1 |  | RF |  | CEM | 8.4 µg/mL
CO/N=C/c1cc(NC(=S)OC(C)C)ccc1Cl |  |  | RT-E138K | CEM | 2.441 µM
Cc1occc1C(=S)Nc1ccc(Cl)c(/C=N/OC(C)(C)C)c1 | 0% human serum | IIIB |  | CEM | 0.057 µM
CCc1c(Sc2ccccc2)n(COCc2ccccc2)c(=O)[nH]c1=O |  | IIIB | RT-Y181C | CEM | 0.41 µM
CN1N=C(N)c2cn([C@@H]3O[C@H](COP(=O)(O)O)[C@@H](O)[C@H]3O)c3ncnc1c23 |  | G-910 |  | CEM + CEM-SS | 0.058 µM
Cc1ccc(C)c(C(C)S(=O)(=O)c2c(C)ccc[n+]2[O-])c1 |  | IIIB | RT-V179D | CEM | 0.35 µg/mL
C=C(Cl)COc1cc(NC(=S)c2ccoc2C)ccc1C |  | Nevirapine-resistant isolate (RT V106A) | RT-V106A | CEM | 0.67 µg/mL
CCCOC(=O)c1cc(NC(=O)C2=C(C)OCCS2)ccc1Cl |  | Nevirapine-resistant (RT V106A) | RT-V106A | CEM | 6 µg/mL
COc1ccccc1C(=S)Nc1ccc(Cl)c(C(=O)OC2CCCC2)c1 |  |  | RT-E138K | CEM | 1.5 µM
Cc1occc1C(=O)Nc1ccc(Cl)c(SCC=C(Cl)Cl)c1 |  | Pyridone-resistant (RT Y181C) | RT-Y181C | CEM | 2 µg/mL
COCCOC(=S)Nc1ccc(Cl)c(C(=O)OC(C)C)c1 |  |  | RT-V106A | CEM | 21.09 µM
Cc1sccc1C(=S)Nc1ccc(Cl)c(C(=O)OC2CCCCC2)c1 |  |  | RT-L100I | CEM | 0.085 µM
CC(C)OC(=O)Nc1ccc(Cl)c(C(=O)OC(C)C)c1 |  |  | RT-L100I | CEM | 25.02 µM
CC(C)OC(=O)c1cc(NC(=S)c2cccs2)ccc1Cl |  |  | RT-E138K | CEM | 0.84 µM
CC(C)OC(=S)Nc1ccc(Cl)c(C(=O)O)c1 |  |  | RT-E138K | CEM | >36.53 µM
C/C=C/COc1cc(NC(=S)c2ccoc2C)ccc1Cl |  |  | RT-E138K | CEM | 1.7 µM
Cc1cc(C)cc(Sc2c(C(C)C)c(=O)[nH]c(=S)n2COCCO)c1 |  | IIIB TIBO R82913-resistant (RT K103N) | RT-K103N | CEM | 0.6 µM
Cc1cn([C@H]2C[C@H](N=[N+]=[N-])[C@@H](COP(=O)(Nc3cc(C(=O)Nc4cc(C(=O)Nc5cc(C(=O)NCCC(=N)N)n(C)c5)n(C)c4)n(C)c3)OC3CCCCC3)O2)c(=O)[nH]c1=O |  |  |  | CEM | 0.011 µM
Cc1ccsc1C(=O)Nc1ccc(Cl)c(C(=O)OC2CCCCC2)c1 |  |  | RT-Y181C | CEM | 13 µM
CCCCCOC(=O)c1cc(NC(=O)C2=C(C)OCCS2)ccc1Cl |  | TSAO-resistant (RT E138K) | RT-E138K | CEM | 9 µg/mL
CCCCCCCCCC[N+](C)(C)CCCNCc1c(O)cc2c(c1O)-c1cc(ccc1O)[C@H]1NC(=O)[C@@H]3NC(=O)C4NC(=O)[C@@H](Cc5ccc(c(Cl)c5)Oc5cc3cc(c5O)Oc3ccc(cc3Cl)[C@@H](O)[C@H](NC1=O)C(=O)N[C@@H]2C(=O)O)NC(=O)[C@H](N)c1ccc(O)c(c1)Oc1cc(O)cc4c1 |  | IIIB |  | C8166 | 6.6 µM
CCC(CC)OC(=O)c1cc(NC(=S)OC(C)C)ccc1Cl |  | IIIB |  | CEM | 0.116 µM
COc1ccc(NC(=O)C2=C(C)OCCS2)cc1OCC=C(Cl)Cl |  | Nevirapine-resistant isolate (RT V106A) | RT-V106A | CEM | 10 µg/mL
CC(C)OC(=S)Nc1ccc(Cl)c(COC(C)(C)C)c1 |  |  | RT-E138K | CEM | ≥31.66 µM
CCc1c(Sc2cc(C)cc(C)c2)n(COCCO)c(=S)[nH]c1=O |  | IIIB TIBO R82913-resistant (RT K103N) | RT-K103N | CEM | 0.33 µM
CC(=O)COc1cc(NC(=S)OC(C)C)ccc1Cl |  |  | RT-Y181C | CEM | 24.85 µM
COc1ccc(NC(=O)c2ccoc2C)cc1OCC=C(Cl)Cl |  | TSAO-m3T-resistant (RT E138K) | RT-E138K | CEM | 10 µg/mL
CC1=C(C(=S)Nc2ccc(Cl)c(C=NOC(C)(C)C)c2)CCCO1 |  | IIIB |  | CEM | 0.0035 µM